PubChem BioAssay AID624099, ICCB-Longwood, 2012

Purpose: 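Host factors E2 relies on to silence an HPV18 LCR reporter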 (primary screen)
System: human C33A cervical carcinoma cells (HPV-negative) stably expressing BPV1 E2 and an HPV18 LCR luciferase reporter
Reagent: siRNA pool against human genes, 40 nM
Duration: 72 h
Measured: 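HPV18 LCR reporter light per well, converted to plate-wise z-scores that exclude control wells, and averaged over triplicate plates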
Reading the numbers: mean z-score and z-score: higher = stronger reporter signal, weaker E2 silencing
Active means: 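Mean z ≥ 2 together with z ≥ 2 in two or more of the three replicates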
In all, the deposit lists about 21,000 reagents; shown is a part drawn at random. In the full data, 497 (2.4%) are marked active. 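Higher z means weaker E2 silencing; only reporter increases were scored, and knock-downs that hurt cell survival may mask genuine repressor factors.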 A number with no mark means an inactive call. The numbers tell different reagents against one gene apart.

target gene	reagent no.	mean z-score	z-score, replicate A	z-score, replicate B	z-score, replicate C
RICTOR	1	-0.18	-0.34	0.13	-0.34
RICTOR	2	0.61	0.22	1	0.09
KLF4	1	0.17	0.04	0.33	0.15
TMEM121	1	0.77	0.13	0.63	1.57
CTSG	1	0.24	0	0.34	0.39
EDNRB	1	-0.21	-0.08	-0.09	-0.47
APCDD1L	1	-0.61	-0.63	-0.65	-0.54
ZMIZ2	1	-0.21	-0.46	0.04	-0.22
OR4F6	1	0.41	0.44	0.23	0.54
BRI3BP	1	-0.87	-0.58	-0.93	-1.09
ADAD2	1	2.15 (active)	1.62	2.03	2.79
C20orf66 (retired record)	1	-0.31	-0.28	-0.2	-0.45
ARHGDIB	1	1	0.86	0.87	1.27
APOA2	1	0.87	0.57	1.06	0.97
DTNA	1	0.69	0.81	0.78	0.47
UROC1	1	-0.21	-0.06	-0.46	-0.11
MMEL1	1	-0.36	-0.38	-0.49	-0.22
XPA	1	-0.1	0.18	-0.44	-0.04

Continued, starting with the last 3 of the part before.
target gene	reagent no.	mean z-score	z-score, replicate A	z-score, replicate B	z-score, replicate C
UROC1	1	-0.21	-0.06	-0.46	-0.11
MMEL1	1	-0.36	-0.38	-0.49	-0.22
XPA	1	-0.1	0.18	-0.44	-0.04
TBC1D3C	1	0.41	0.46	0.82	-0.05
MIA	1	1.05	1.06	1	1.09
OR2H1	1	0.77	1.07	0.51	0.73
ZNF506	1	-0.32	-0.28	-0.02	-0.65
RPS18	1	-2.01	-2.11	-2.06	-1.85
TNFSF18	1	0.58	0.81	0.69	0.23
NF1	1	-0.66	-0.59	-0.63	-0.75
ADAM22	1	0.27	0.48	0.11	0.23
RAB25	1	1.47	1.56	1.42	1.43
ACAP3	1	1.37	0.78	1.73	1.61
SPPL2A	1	2.04 (active)	1.96	2.16	2
LOC401175 (retired record)	1	-0.25	-0.09	-0.52	-0.14
MOGAT3	1	0.81	0.9	0.78	0.74
CCND1	1	0.85	0.81	0.7	1.05
RANGRF	1	-0.18	-0.33	0	-0.2
CELF2	1	0.44	-0.07	0.69	0.69
PHLPP1	1	0.69	0.8	0.49	0.77
EEF1B2P6	1	-0.37	-0.21	-0.46	-0.43
ODF2	1	0.58	0.84	0.66	0.23
SAXO5	1	-0.28	-0.03	-0.6	-0.2
OR11H6	1	-1.69	-1.58	-1.3	-2.2
